Measured values from several laboratories, pooled; numbers as filed in NIAID ChemDB.

Shared fields: tests in culture; agent: Mycobacterium tuberculosis

MIC bound comes from a single tested concentration.

compound,strain or isolate,changes,cell line,read by,read-out,tested at,result
C[N+](C)(C)CC(=O)N/N=C(\C(=O)Nc1ccc(Br)cc1)C1C(=O)NC(=O)NC1=O,H37Rv,-,-,BACTEC,inhibition,12.5 µg/mL,8%
O=C(Cc1nn(Cc2ccc(Br)cc2F)c(=O)c2ccccc12)N/N=C(\c1ccccc1)c1ccc(Br)cc1,Multidrug-resistant (MDR),-,-,-,MIC,-,1.26 µM
Cc1ccc2nc(C)n3c4ccccc4nc3c2c1,H37Rv,INH resistant,-,resazurin,MIC99,-,1.56 µg/mL
Cc1ccc(NC(=O)C2(c3cccs3)CCOCC2)c(C)c1,CDC1551,-,-,turbidity,EC50,-,200 µM
O=C(N/N=C/c1ccc(O)cc1)c1ccccc1-c1nc2ccccc2[nH]1,H37Rv,-,-,-,EC50,-,<0.031 µg/mL
CNC(=O)Oc1ccccc1C(=O)Nc1ccccc1,H37Rv,-,-,BACTEC,MIC bound,-,>12.5 µg/mL
COC(=O)c1c(C(=O)OC)c2ccc3c4ncccc4ccc3n2c1C(=O)c1ccc([N+](=O)[O-])cc1,H37Rv,-,-,reporter gene / fluorescence,MIC,-,>100 µM
O=C(NN1C(=O)C(Cl)C1c1ccccc1Cl)c1ccccc1-c1nc2ccccc2[nH]1,H37Rv,-,-,-,inhibition,0.031 µg/mL,32%
c1ccc(-c2cnnc3c4ccccc4nn23)cc1,H37Rv,-,-,resazurin,inhibition,6.25 µg/mL,44%
CN(C)c1ccc(C2C(Cl)C(=O)N2NC(=O)c2ccccc2-c2nc3ccccc3[nH]2)cc1,H37Rv,-,-,-,EC50,-,>0.031 µg/mL
O=c1oc2ccc(Br)cc2cc1-c1cs/c(=N/N=C/c2cc([N+](=O)[O-])ccc2O)n1C1CCCCC1,H37Rv,-,-,-,inhibition,6.25 µg/mL,0%
CCCC[N+](CCCC)=c1ccc2nc3c(C)cc(N(CC)CC)cc3sc-2c1,H37Rv,-,-,BACTEC,MIC bound,-,≤12.5 µg/mL
COC(=O)c1c(C(=O)OC)c2ccc3c4ncccc4ccc3n2c1C(=O)c1ccccc1,H37Rv,-,-,reporter gene / fluorescence,EC50,-,>20 µM
CC[C@@H]1CN2CCc3c([nH]c4ccccc34)[C@@H]2C[C@@H]1/C(=C\OC)C(=O)OC,H37Rv,-,-,BACTEC,inhibition,12.5 µg/mL,1%
COc1c(N2CCNC(C)C2)c(F)cc2c(=O)c(C(=O)O)cn(C3CC3)c12,Z148 (isoniazid streptomycin-resistant),-,-,-,MIC,-,0.25 µg/mL
CO[C@H]1/C=C/O[C@@]2(C)Oc3c(C)c(O)c4c(O)c(c5c(c4c3C2=O)NC2(CCNCC2)N=5)=NC(=O)/C(C)=C\C=C\[C@H](C)[C@H](O)[C@@H](C)[C@@H](O)[C@@H](C)[C@H](OC(C)=O)[C@@H]1C,H37Rv,-,-,-,MIC,-,0.02 µg/mL
O=C(N/N=C/c1ccccc1Cl)c1ccccc1-c1nc2ccccc2[nH]1,H37Rv,-,-,-,EC50,-,>0.031 µg/mL
CCN(CC)CCNc1ccc(CO)c2sc3ccccc3c(=O)c12,H37Rv,-,VERO,-,MIC,-,1.6 µg/mL
COc1ccc(/C=N/N=c2/scc(-c3cc4ccccc4oc3=O)n2C2CCCCC2)cc1OC,H37Rv,-,-,-,inhibition,6.25 µg/mL,1%
Cc1ccc(NC(=O)C2(c3cccs3)CCOCC2)cc1F,CDC1551,-,-,turbidity,EC50,-,64 µM
CCc1nc2ccccc2c2nc3ccccc3n12,H37Rv,-,-,resazurin,MIC99,-,101.1 µM
O=C(Cc1nn(Cc2ccc(Br)cc2F)c(=O)c2ccccc12)N/N=C/c1ccc(Br)cc1,Multidrug-resistant (MDR),-,-,-,MIC,-,0.72 µM
CO[C@H]1/C=C/O[C@@]2(C)Oc3c(C)c(O)c4c(O)c(c5c(c4c3C2=O)NC2(CCN(CC(C)C)CC2)N=5)=NC(=O)/C(C)=C\C=C\[C@H](C)[C@H](O)[C@@H](C)[C@@H](O)[C@@H](C)[C@H](OC(C)=O)[C@@H]1C,-,-,-,-,MIC90,-,0.022 µg/mL
COc1cc(/C=N/NC(=O)c2ccccc2-c2nc3ccccc3[nH]2)cc(OC)c1OC,H37Rv,-,-,-,inhibition,0.031 µg/mL,27%
Fc1ccc(NC(=S)N/N=C/c2cccs2)cc1Cl,H37Rv,-,-,-,MIC,-,2.5 µg/mL
CO[C@H]1/C=C/O[C@@]2(C)Oc3c(C)c(O)c4c(O)c(c5c(c4c3C2=O)NC2(CCN(CC(C)C)CC2)N=5)=NC(=O)/C(C)=C\C=C\[C@H](C)[C@H](O)[C@@H](C)[C@@H](O)[C@@H](C)[C@H](OC(C)=O)[C@@H]1C,H37RV-PLN-2,-,-,-,MIC,-,≤0.015 µg/mL
COc1cc(OC)c2cc([N+](=O)[O-])c3ccc(=O)oc3c2c1,H37Rv,-,-,resazurin,MIC,-,25 µg/mL
CCCCN1[C@@H](c2ccccc2)CC2(C[C@H]1c1ccccc1)N=c1c(c3c4c5c(C)c(O)c3c(O)c1=NC(=O)/C(C)=C\C=C\[C@H](C)[C@H](O)[C@@H](C)[C@H](O)[C@H](C)[C@H](OC(C)=O)[C@H](C)[C@@H](OC)/C=C/O[C@@](C)(O5)C4=O)N2,ATCC 35820 (streptomycin-resistant),-,-,-,MIC,-,0.02 µg/mL
COC(=O)NC[C@H]1CN(c2ccc(N3CC4(CSC4)C3)c(F)c2)C(=O)O1,H37Rv,-,-,broth dilution / fluorescence,MIC,-,0.03–0.06 µg/mL
O=c1oc2ccccc2cc1-c1cs/c(=N/N=C/c2ccc(Cl)c(Cl)c2)n1C1CCCCC1,H37Rv,-,-,-,EC50,-,>6.25 µg/mL
Cc1ccc2ncn3c4ccccc4nc3c2c1,H37Rv,-,-,resazurin,MIC99,-,>25 µg/mL
CCOC(=O)C1=C(C)N(c2ccc(F)c(Cl)c2)C(=O)NC1c1ccccc1[N+](=O)[O-],H37Rv,-,-,resazurin,MIC,-,>6.25 µg/mL
CCOC(=O)c1cc(C(=O)c2ccc(Br)cc2)n2c1ccc1c3ncccc3ccc12,H37Rv,-,-,reporter gene / fluorescence,MIC,-,>100 µM
O=c1oc2ccccc2cc1-c1cs/c(=N\N=C\c2cc([N+](=O)[O-])ccc2O)n1C1CCCCC1,H37Rv,-,-,-,MIC,-,>6.25 µg/mL
O=C(Nc1ccc(C(F)(F)F)cc1)C1(c2cccs2)CCOCC1,CDC1551,-,-,turbidity,EC50,-,9.7 µM
Clc1ccc2ncn3c4ccccc4nc3c2c1,H37Rv,-,-,resazurin,MIC99,-,>25 µg/mL
CCC(Cc1ccco1)C(=O)NC(N)=O,H37Rv,-,-,BACTEC,inhibition,12.5 µg/mL,0%
CCOC(=O)c1cc(C(=O)c2ccc(OC)cc2)n2c1ccc1c3ncccc3ccc12,H37Rv,-,-,reporter gene / fluorescence,EC50,-,>200 µM
CCc1ccc(NC(=O)C2(c3cccs3)CCOCC2)cc1,CDC1551,-,-,turbidity,EC50,-,10 µM
C=CCOC(=O)NC(Cc1ccccc1)C(=O)NNc1ccccc1,H37Rv,-,-,BACTEC,inhibition,12.5 µg/mL,16%
O=C(Cc1nn(Cc2ccc(Br)cc2F)c(=O)c2ccccc12)N/N=C/c1ccc(F)cc1,Multidrug-resistant (MDR),-,-,-,MIC,-,0.81 µM
CC1=C(C(=O)Nc2ccc(C)cc2)C(c2cccc(Cl)c2)NC(=O)N1c1ccc(F)c(Cl)c1,H37Rv,-,-,resazurin,MIC,-,>6.25 µg/mL
CCN(CC)C(=S)SSC(=S)N(CC)CC,H37Rv,-,VERO,-,MIC,-,<0.1 µg/mL
CCOC(=O)C1=C(C)N(c2ccc(F)c(Cl)c2)C(=O)NC1c1cccc([N+](=O)[O-])c1,H37Rv,-,-,resazurin,MIC,-,>6.25 µg/mL
CC(C)(O)C1COC2=C1C(=O)c1ccccc1C2=O,H37Rv,-,-,BACTEC,inhibition,12.5 µg/mL,60%
O=C(Cc1nn(Cc2ccc(Br)cc2F)c(=O)c2ccccc12)N/N=C/c1ccccc1[N+](=O)[O-],Multidrug-resistant (MDR),-,-,-,MIC,-,0.18 µM
CCOC(=O)c1cc(C(=O)c2ccc(C)cc2)n2c1ccc1c3ncccc3ccc12,H37Rv,-,-,reporter gene / fluorescence,EC50,-,>200 µM
O=C(N/N=C/c1ccccc1[N+](=O)[O-])c1ccccc1-c1nc2ccccc2[nH]1,H37Rv,-,-,-,inhibition,0.031 µg/mL,48%
NC(=O)c1cnn(CCO)c1N,H37Rv,-,-,BACTEC,inhibition,12.5 µg/mL,5%
CC(=O)NC[C@H]1CN(c2ccc(-c3ccc(-c4nnnn4C)nc3)c(F)c2)C(=O)O1,67 clinical isolates,-,-,-,MIC90,-,0.125 µg/mL
COc1ccc2cc([N+](=O)[O-])c3ccc(=O)oc3c2c1,H37RvSr,-,-,resazurin,MIC,-,25 µg/mL
C[C@@H]1CN(c2c(F)c(N)c3c(=O)c(C(=O)O)cn(C4CC4)c3c2F)C[C@H](C)N1,-,-,-,-,MIC90,-,0.2 µg/mL
COc1ccc(C2NC(=O)N(c3ccc(F)c(Cl)c3)C(C)=C2C(=O)Nc2ccc(C)cc2)cc1,H37Rv,-,-,resazurin,MIC,-,>6.25 µg/mL
CCOC(=O)c1ccc(NC(=O)C2(c3cccs3)CCOCC2)cc1,CDC1551,-,-,turbidity,EC50,-,200 µM
COc1ccc(-c2cc(C(=O)O)c3cc4ccccc4cc3n2)cc1Br,H37Rv,-,-,BACTEC,MIC bound,-,≤12.5 µg/mL
CCn1cc(C(=O)O)c(=O)c2cc(F)c(N3CCNCC3)cc21,134 isolates,-,-,-,MIC90,-,8 µg/mL
C[C@@H]1CN(C(=O)C(O)(c2ccccc2)c2ccccc2)[C@@H](C)CN1c1ccccn1,H37Rv,-,-,BACTEC,MIC bound,-,>12.5 µg/mL
O=C(N/N=C/c1cccc([N+](=O)[O-])c1)c1ccccc1-c1nc2ccccc2[nH]1,H37Rv,-,-,-,EC50,-,<0.031 µg/mL
COc1ccc(C2NC(=O)N(c3ccc(F)c(Cl)c3)C(C)=C2C(=O)Nc2ccc(C)cc2)cc1OC,H37Rv,-,-,resazurin,MIC,-,>6.25 µg/mL
O=C(Cc1nn(Cc2ccc(Br)cc2F)c(=O)c2ccccc12)N/N=C/c1cccc(F)c1,Multidrug-resistant (MDR),-,-,-,MIC,-,0.81 µM
C.CCCCCCCCCCCCCC(=O)OCC(CCS(=O)(=O)OC1CC[C@@]2(C)C(=CC[C@@H]3C2CC[C@]2(C)C(=O)CC[C@@H]32)C1)OC(=O)CCCCCCCCCCCCC,H37Rv,-,-,BACTEC,MIC bound,-,>12.5 µg/mL
O=C1O[C@@H](Cn2ccnn2)CN1c1ccc(N2CC3(COC3)C2)c(F)c1,H37Rv,-,-,broth dilution / fluorescence,MIC,-,3.2–3.7 µg/mL
Cc1cccc(C)c1NC(=O)C(=O)C(c1ccccc1Cl)S(=O)(=O)Cc1ccccc1Cl,H37Rv,-,-,BACTEC,MIC bound,-,>12.5 µg/mL
COc1ccc(/C=N/NC(=S)Nc2ccc(F)c(Cl)c2)cc1,H37Rv,-,-,-,MIC,-,2.4 µg/mL
CCC(C)C(NC(=O)C1CCCN1C(=O)OCc1ccccc1)C(=O)O,H37Rv,-,-,BACTEC,inhibition,12.5 µg/mL,-13%
NNC(=O)c1ccncc1,Multidrug-resistant (MDR),-,-,-,MIC,-,45.57 µM
Cn1c(=O)c2nc(-c3cccnc3)cnc2n(C)c1=O,H37Rv,-,-,BACTEC,MIC bound,-,>12.5 µg/mL
CCCCc1nc2ccc(Br)cc2c2nc3ccccc3n12,H37Rv,-,-,resazurin,MIC99,-,3.125 µg/mL
COc1cccc2c1CCc1sc(CN3CCN(C)CC3)nc1-2,H37Rv,-,-,resazurin,inhibition,6.25 µg/mL,7%
COc1ccc([C@@H]2CC3(C[C@H](c4ccc(OC)cc4)N2)N=c2c(c4c5c6c(C)c(O)c4c(O)c2=NC(=O)/C(C)=C\C=C\[C@H](C)[C@H](O)[C@@H](C)[C@H](O)[C@H](C)[C@H](OC(C)=O)[C@H](C)[C@@H](OC)/C=C/O[C@@](C)(O6)C5=O)N3)cc1,ATCC 35837 (ethambutol-resistant),-,-,-,MIC,-,0.02 µg/mL
COC(=O)C1C2CCCCC1C(=O)O2,H37Rv,-,-,BACTEC,MIC bound,-,>12.5 µg/mL
Cc1nc2ccccc2c2nc3cc4ccccc4cc3n12,H37Rv,-,-,resazurin,MIC99,-,6.25 µg/mL
C=C1C(=O)OC2C1C(OC(=O)/C(C)=C/C)CC(=C)C1C(O)C3OC3(C)C21O,H37Rv,-,-,BACTEC,MIC bound,-,>12.5 µg/mL
CO[C@H]1/C=C/O[C@@]2(C)Oc3c(C)c(O)c4c(O)c(c(/C=N/N5CCN(C)CC5)c(O)c4c3C2=O)NC(=O)/C(C)=C\C=C\[C@H](C)[C@H](O)[C@@H](C)[C@@H](O)[C@@H](C)[C@H](OC(C)=O)[C@@H]1C,13684,-,-,-,MIC,-,0.05 µg/mL
CC1=C(C(=O)Nc2ccc(C)cc2)C(c2ccccc2)NC(=O)N1c1ccc(F)c(Cl)c1,H37Rv,-,-,resazurin,MIC,-,>6.25 µg/mL
CCc1nc2ccc(F)cc2c2nc3ccccc3n12,H37Rv,-,-,resazurin,MIC99,-,>25 µg/mL

Neighbouring rows are from separate reports. Two numbers with a dash give a range or band. Blank or dashed fields: not listed here. MIC50, MIC90 and the like: level of inhibition, or share of isolates inhibited. Percent inhibition refers to the dose given; in toxicity tests it is the harm to the cells. ECn is the concentration giving n% inhibition of infection, replication or growth.